# PubChem BioAssay AID624099 – ICCB-Longwood – 2012
# Screen: 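Human genes that papillomavirus E2 requires to repress the HPV18 LCR promoter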 (primary screen)
# Cell system: human C33A cervical carcinoma cells (HPV-negative) stably expressing BPV1 E2 and an HPV18 LCR luciferase reporter
# Knock-down reagent: siRNA pool against human genes, 40 nM
# Duration: 72 h
# Measured: 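Per-well luciferase luminescence, z-scored on each plate against the plate mean and SD with control wells left out, then averaged across three replicate plates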
# Scale: mean z-score and z-score: higher = stronger reporter signal, weaker E2 silencing
# Rule for the call: 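Mean z ≥ 2 together with z ≥ 2 in two or more of the three replicates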
# This is one part, drawn at random, of about 21,000 reagents. 497 of all reagents (2.4%) count as active. 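Higher z means weaker E2 silencing; only reporter increases were scored, and knock-downs that hurt cell survival may mask genuine repressor factors.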 A number with no mark means an inactive call. The numbers tell different reagents against one gene apart. No sequences are given here.
target,reagent,mean z-score,"z-score, replicate A","z-score, replicate B","z-score, replicate C"
SLC44A3,1,1.15,1.08,1.31,1.08
KISS1R,1,-0.65,-0.7,-0.77,-0.48
CPSF1,1,-1.07,-0.94,-1.19,-1.07
RBKS,1,0.53,0.08,0.61,0.91
KRTAP13-1,1,-1.01,-1.44,-0.69,-0.89
PRR16,1,2.43 (active),3.19,2.02,2.09
REG1A,1,0.38,0.27,0.54,0.32
RIOX1,1,-0.28,-0.52,-0.49,0.16
TRIM8,1,0.08,0.06,-0.01,0.19
VBP1,1,-0.46,-0.2,-0.78,-0.41
TCHP,1,0.59,0.49,0.8,0.48
PRDX6,1,0.32,0.34,0.26,0.36
UBTFL7,1,0.07,0.09,-0.13,0.26
GDAP1L1,1,-0.56,-0.48,-0.58,-0.63
REV3L,1,-1,-1.34,-1.02,-0.64
PARD6A,1,0.39,0.75,0.46,-0.03
SAAL1,1,-0.01,-0.22,-0.35,0.53
SVOP,1,0.68,0.67,0.64,0.72
HMGB3P30,1,0.7,0.58,0.58,0.94
WASH5P,1,-0.32,0,-0.4,-0.57
LINC02903,1,-0.55,-0.9,-0.5,-0.24
LINC02903,2,-0.84,-0.3,-1.21,-1.02
SESN3,1,-0.61,-0.12,-0.77,-0.95
KRTAP9-2,1,0.3,0.37,0.32,0.2
L3MBTL4,1,-0.2,-0.27,-0.23,-0.1
LGALS14,1,1.59,1.28,1.77,1.7
BMX,1,0.17,0.13,0.32,0.07
SMARCC2,1,-0.02,-0.67,0.2,0.42
ULBP2,1,-0.75,-0.8,-0.96,-0.48
C17orf58,1,0.48,1.57,-0.06,-0.07
FCRL1,1,0.25,0.29,0.36,0.08
MANEA,1,-0.84,-0.58,-1.13,-0.8
GRIPAP1,1,1.77,2,1.58,1.74
CUL5,1,-0.62,-0.54,-0.54,-0.76
KIF2B,1,-0.62,-0.53,-0.6,-0.74
SIMC1P1,1,0.21,0.54,0.04,0.05
TENM1,1,0,0.07,-0.1,0.02
GJA8,1,0.35,0.54,0.15,0.36
LOC100505502,1,0.08,0.09,0.4,-0.26
CSPG4P2Y,1,0.15,0.42,0.22,-0.19
HHIP,1,-0.31,-0.22,-0.53,-0.2
NUS1P1,1,-0.49,-0.43,-0.74,-0.3
GLRX5,1,-0.04,0.25,-0.2,-0.18
AKR1C8,1,1.87,2.02,1.94,1.66
RIGI,1,-0.21,-0.37,-0.15,-0.12
RXYLT1,1,0.62,0.19,0.74,0.95
SLC30A7,1,-0.84,-1.38,-0.57,-0.58
NPLOC4,1,0.46,0.85,0.45,0.06
COL6A6,1,-0.04,-0.04,-0.04,-0.04
FMO2,1,-0.73,-0.82,-0.62,-0.75
KRT15,1,0.19,-0.07,0.38,0.26
SOS2,1,0.85,0.93,0.51,1.1
C11orf71,1,0.46,0.4,0.51,0.45
MAP4K3,1,-1.47,-1.55,-1.48,-1.38
NBPF14,1,-1.14,-0.99,-1.23,-1.21
PTPMT1,1,-1.03,-0.79,-1.28,-1.03
RHBDD2,1,0.54,0.72,0.84,0.06

5 entries already listed, ordered by “z-score, replicate B”, ascending:
target,reagent,mean z-score,"z-score, replicate A","z-score, replicate B","z-score, replicate C"
KIF2B,1,-0.62,-0.53,-0.6,-0.74
CUL5,1,-0.62,-0.54,-0.54,-0.76
TENM1,1,0,0.07,-0.1,0.02
SIMC1P1,1,0.21,0.54,0.04,0.05
GRIPAP1,1,1.77,2,1.58,1.74
